In PMC6943423 (Molecules, 2019):
Square brackets hold non-standard residues; d marks the D form. Peptide text beside a SMILES is read from it. d1Nal = N[C@H](Cc1cccc2ccccc12)C(=O)O; dNle = CCCC[C@@H](N)C(=O)O

Test: Lipid-peptide interaction by synchrotron SAXS
Conditions: SAXS fit parameter; for Bilayer thickness: liposomes alone 38.5±0.5; for Zpeptide: peptide position in bilayer
Text: For preparation of unilamellar lipid vesicles, synthetic DMPC (1,2-dimyristoyl-sn-glycero-3-phosphocholine), DMPG (1,2-dimyristoyl-sn-glycero-3-phospho-(10-rac-glycerol)), and DMPE-PEG (1,2-dimyristoyl-sn-glycero-3-phosphoethanolamine-N-[methoxy(polyethylene glycol)-2000]) (from Avanti Polar Lipids) were used in the molar ratio 9:7.5:2.5. The lipids were first dissolved in a 1:3 methanol:chloroform solution, and then the organic solvents were removed completely under vacuum using a Heidolph rotary evaporator with a Vacuubrand vacuum pump. The resulting lipid film was hydrated with 50 mM Tris buffer, pH 7.4, for at least one hour at 35 °C. After sonication for 10 min, the lipid dispersions were extruded through a 100 nm pore diameter polycarbonate filter (21 times) using an Avanti mini-extruder fitted with two 1 mL airtight syringes. Immediately before the SAXS experiment, a peptide solution with the adequate concentration for the target lipid:peptide ratio was mixed 1:1 with the lipid solution (1:1) using a micropipette.
SAXS experiments of the peptide-lipid mixes were performed at the automated BM29 bioSAXS beamline at the European Synchrotron Radiation Facility (ESRF) in Grenoble, France. The data was obtained using an energy of 12.5 keV and a detector distance of 2.87 m, covering a q range of about 0.0047 Å^−1 to 0.5 Å^−1. The data set was calibrated to an absolute intensity scale using water as a primary standard. 40 µL samples were run through a capillary using the flow mode of the automated sample changer. SAXS data was collected in ten successive frames of 0.5 s each to monitor radiation damage and the data reduction was done using the standard tool at BM29 [37].
The SAXS results of the lipid-peptide mixes were analysed using the theoretical model described in detail in [29]. In short, the model provides a detailed description of the membrane by dividing into probability functions for each component (lipid sub-units/peptide) across the bilayer.

[1] = fraction peptide 1:10 (peptide 5: joint SAXS/SANS fit)

SMILES | Bilayer thickness (fraction peptide 1:5) [Å] | Bilayer thickness [1] [Å] | Bilayer thickness (fraction peptide 1:20) [Å] | Zpeptide (fraction peptide 1:5) [Å] | Zpeptide [1] [Å] | Zpeptide (fraction peptide 1:20) [Å]
CCCC[C@@H](NC(=O)[C@@H](CCCCN)NC(=O)[C@@H](Cc1cccc2ccccc12)NC(=O)[C@@H](CCCCN)NC(=O)[C@@H](Cc1ccccc1)NC(=O)[C@@H](Cc1cccc2ccccc12)NC(=O)[C@@H](CCCCN)NC(=O)[C@H](N)CCCCN)C(N)=O [Compound D2D, kk(1-nal)fk(1-nal)k(nle)-NH2] (H-[dK][dK][d1Nal][dF][dK][d1Nal][dK][dNle]-NH2) | 38.5±0.5 | 38.5±0.5 | 38.5±0.5 | 14 | 12 | 11
CCCC[C@@H](NC(=O)[C@@H](CCCCN)NC(=O)[C@@H](Cc1cccc2ccccc12)NC(=O)[C@@H](C)NC(=O)[C@@H](Cc1ccccc1)NC(=O)[C@@H](Cc1cccc2ccccc12)NC(=O)[C@@H](CCCCN)NC(=O)[C@H](N)CCCCN)C(N)=O [Compound 5, kk(1-nal)fa(1-nal)k(nle)-NH2] (H-[dK][dK][d1Nal][dF][dA][d1Nal][dK][dNle]-NH2) |  |  |  | 16 | 17 | 17
